Pooled drug test results. Numbers come from NIAID ChemDB, via PubChem.

Shared fields: whole-cell or culture tests; agent: Mouse cytomegalovirus; read by: plaque count; endpoint: EC50

Neighbouring rows are from separate reports. An empty or dashed field is not shown. ECn: concentration that inhibits the pathogen or its effect by n%.

compound,cells,strain or isolate,result
COc1nc(N)nc2c1ncn2C=C1CC1CO,MEF,,0.4 µM
Nc1nc2c(ncn2/C=C2/CC2(CO)CO)c(=O)[nH]1,MEF,,0.3 µM
CCCCCCCCCCCCCCCCOCCCOP(=O)(O)CO[C@H](CO)Cn1ccc(N)nc1=O,MEF,SMITH,0.0009 µM
C=CCNc1nc(N)nc2c1ncn2/C=C1/C[C@@H]1CO,MEF,,0.3 µM
CN(C)c1cccc2c(S(=O)(=O)Nc3ccc(NC(=O)C(C)(C)CO)cc3)cccc12,,SMITH,0.049 µM
Nc1ncnc2c1ncn2/C=C1/C[C@@H]1CO,MEF,,0.55 µM
Nc1nc2c(ncn2COC(CO)CO)c(=O)[nH]1,3T3-L1,SMITH,1 µg/mL
CCCOc1nc(N)nc2c1ncn2/C=C1/C[C@@H]1CO,MEF,,<0.1 µM
Nc1nc2c(ncn2COC(COP(=O)(O)O)COP(=O)(O)O)c(=O)[nH]1,MRC-5,SMITH,28.1 µM
O=C(NCc1ccc(Cl)cc1)c1cn2c3c(cc(CN4CCOCC4)cc3c1=O)OC(c1cccnc1)C2,HFF,,0.8 µM
CCCCCCCCCCCCOCCCOP(=O)(O)CO[C@H](CO)Cn1ccc(N)nc1=O,MEF,SMITH,0.015 µM
Nc1ncnc2c1ncn2/C=C1/CC1(CO)CO,MEF,,0.27 µM
Nc1ccn(C[C@@H](CO)OCP(=O)(O)O)c(=O)n1,MEF,,<0.09 µM
Nc1ncnc2c1ncn2/C=C1/C[C@H]1CO,MEF,,55 µM
CC(C)Nc1nc2cc(Cl)c(Cl)cc2n1[C@H]1O[C@@H](CO)[C@H](O)[C@@H]1O,HFF,,>11 µM
C=CCOc1nc(N)nc2c1ncn2/C=C1/C[C@@H]1CO,MEF,,0.3 µM
O=C(NCc1ccc(Cl)cc1)c1c[nH]c2ccc(CCCO)cc2c1=O,,SMITH,1.6 µM
Nc1nc(NC2CC2)c2ncn(/C=C3/C[C@@H]3CO)c2n1,MEF,,0.1 µM
CCCCCCCC/C=C\CCCCCCCCOCCOP(=O)(O)CO[C@H](CO)Cn1ccc(N)nc1=O,MEF,SMITH,0.004 µM
Nc1ccn(C[C@@H](CO)OCP(=O)(O)O)c(=O)n1,10T1/2,SMITH,0.04 µM
Nc1ccn(C[C@H]2COP(=O)(O)CO2)c(=O)n1,MRC-5,,0.39 µM
Nc1nc(N)c2ncn(C=C3CC3CO)c2n1,MEF,,0.6 µM
Nc1nc2c(ncn2COC(CO)CO)c(=O)[nH]1,HFF,,2.9 µM
CCCCCCCCCCCCCCCCOP1(=O)CO[C@@H](Cn2ccc(N)nc2=O)CO1,MEF,,0.13 µM
CCCCCCCCCCCCCCCCOCCCOP(=O)(O)OCC(CO)OCn1cnc2c(=O)[nH]c(N)nc21,MRC-5,,105.8 µM
Nc1ccn(C[C@@H](CO)OCP(=O)(O)O)c(=O)n1,MRC-5,,0.26 µM
CN(C)c1cccc2c(S(=O)(=O)Nc3ccc(NC(=O)C(C)(C)CO)cc3)cccc12,,WILD TYPE,0.049 µM
CCCCCCCCCCCCOCCCOP1(=O)CO[C@@H](Cn2ccc(N)nc2=O)CO1,MEF,,0.013 µM
OC[C@H]1O[C@@H](n2c(Br)nc3cc(Cl)c(Cl)cc32)[C@H](O)[C@@H]1O,HFF,Smith (resistant),34 µM
CNc1cccc2c(S(=O)(=O)Nc3ccc(NC(=O)C(C)(C)CO)cc3)cccc12,,WILD TYPE,0.033 µM
O=C(NCc1ccc(Cl)cc1)c1c[nH]c2c(F)cc(CCCO)cc2c1=O,,SMITH,1.7 µM
Nc1nc2c(ncn2COC(CO)CO)c(=O)[nH]1,MRC-5,SMITH,6.2 µM
CCCCCCCCCCCCCCCCOCCCOP1(=O)CO[C@@H](Cn2ccc(N)nc2=O)CO1,MEF,SMITH,0.004 µM
N/C(=N\O)c1cc(O)c(O)c(O)c1,,Drug-resistant,11.59 µM
Nc1ncnc2c1ncn2/C=C1/CC1(CO)CO,MEF,SMITH,10 µM
CCCCCCCC/C=C\CCCCCCCCOCCOP(=O)(O)CO[C@H](CO)Cn1ccc(N)nc1=O,MEF,,0.004 µM
CCCCCSc1nc(N)nc2c1ncn2/C=C1/C[C@@H]1CO,MEF,,1.4 µM
CCCCCCCCCCCCCCCCCCOCCCOP1(=O)CO[C@@H](Cn2ccc(N)nc2=O)CO1,MRC-5,,0.004 µM
Nc1nc(Cl)c2ncn(/C=C3/C[C@H]3CO)c2n1,MEF,,0.3 µM
CCCCCSc1nc(N)nc2c1ncn2/C=C1/C[C@@H]1CO,MEF,,1.4 µM
O=C(NCc1ccc(Cl)cc1)c1c[nH]c2ccc(C#CCO)cc2c1=O,,,1.3 µM
COC(=O)[C@H](C)NP(=O)(OC[C@H]1C/C1=C/n1cnc2c(N)nc(N)nc21)Oc1ccccc1,MEF,,3.2 µM
CC(=O)OCC(COC(C)=O)OCn1cnc2c(=O)[nH]c(N)nc21,HFF,,9.8 µg/mL
Nc1nc2c(ncn2COC(CO)CO)c(=O)[nH]1,HFF,Smith (resistant),27.5 µM
CCCCCCCCCCCCCCOCCCOP(=O)(O)CO[C@H](CO)Cn1ccc(N)nc1=O,MEF,SMITH,0.004 µM
COC(=O)[C@H](C)NP(=O)(OC[C@H]1C/C1=C/n1cnc2c(=O)[nH]c(N)nc21)Oc1ccccc1,MEF,,3.3 µM
CCCCCCCC/C=C\CCCCCCCOCCCOP(=O)(O)CO[C@H](CO)Cn1ccc(N)nc1=O,MEF,SMITH,0.004 µM
CCCC(=O)OCC(COC(=O)CCC)OCn1cnc2c(=O)[nH]c(N)nc21,HFF,,4.4 µg/mL
CCCCCCCCCCCCCCCCCCOCCCOP1(=O)CO[C@@H](Cn2ccc(N)nc2=O)CO1,MEF,SMITH,0.05 µM
CCCC(=O)OCC(CO)OCn1cnc2c(=O)[nH]c(N)nc21,HFF,,7.7 µg/mL
Nc1ccn(C[C@@H](CO)OCP(=O)(O)O)c(=O)n1,HFF,SMITH (WILD TYPE),0.38 µM
O=C(O)CP(=O)(O)O,MEF,,15.1 µg/mL
CCCCCCCCCCCCCCCCCCOCCOP(=O)(O)CO[C@H](CO)Cn1ccc(N)nc1=O,MEF,SMITH,0.001 µM

A second listing of 8 rows from above:

Nc1ccn(C[C@@H](CO)OCP(=O)(O)O)c(=O)n1 ; cells: HFF ; strain or isolate: SMITH (WILD TYPE) ; result: 0.38 µM
Nc1nc2c(ncn2COC(CO)CO)c(=O)[nH]1 ; cells: MRC-5 ; strain or isolate: SMITH ; result: 6.2 µM
CCCCCCCCCCCCCCCCOP1(=O)CO[C@@H](Cn2ccc(N)nc2=O)CO1 ; cells: MEF ; result: 0.13 µM
CNc1cccc2c(S(=O)(=O)Nc3ccc(NC(=O)C(C)(C)CO)cc3)cccc12 ; strain or isolate: WILD TYPE ; result: 0.033 µM
COC(=O)[C@H](C)NP(=O)(OC[C@H]1C/C1=C/n1cnc2c(=O)[nH]c(N)nc21)Oc1ccccc1 ; cells: MEF ; result: 3.3 µM
CCCCCCCCCCCCOCCCOP(=O)(O)CO[C@H](CO)Cn1ccc(N)nc1=O ; cells: MEF ; strain or isolate: SMITH ; result: 0.015 µM
O=C(NCc1ccc(Cl)cc1)c1c[nH]c2ccc(C#CCO)cc2c1=O ; result: 1.3 µM
Nc1ccn(C[C@H]2COP(=O)(O)CO2)c(=O)n1 ; cells: MRC-5 ; result: 0.39 µM